Results of unrelated studies side by side (data: NIAID ChemDB).

Common to all: growth or infection tests; agent: Cryptosporidium parvum; read-out: inhibition

Blank or dashed fields: not listed here.

structure,dose,strain or isolate,read by,cell line,value
NC(=O)c1ncn([C@@H]2O[C@H](CO)[C@@H](O)[C@H]2O)n1,10 µg/mL,-,-,-,60%
CC(C)c1nc(CN(C)C(=O)N[C@H](C(=O)N[C@@H](Cc2ccccc2)C[C@H](O)[C@H](Cc2ccccc2)NC(=O)OCc2cncs2)C(C)C)cs1,2.5 µg/mL,-,-,HCT-8,<5%
Nc1nc2c(ncn2COCCO)c(=O)[nH]1,1 µg/mL,-,-,-,7%
CO[C@H]1/C=C/O[C@@]2(C)Oc3c(C)c(O)c4c(O)c(c(/C=N/N5CCN(C)CC5)c(O)c4c3C2=O)NC(=O)/C(C)=C\C=C\[C@H](C)[C@H](O)[C@@H](C)[C@@H](O)[C@@H](C)[C@H](OC(C)=O)[C@@H]1C,5 µM,-,cell count,-,7.9%
CCCN(CCC)c1c([N+](=O)[O-])cc(C(F)(F)F)cc1[N+](=O)[O-],1 µM,-,-,HCT-8,100%
CO[C@H]1O[C@@H](n2ccc(=O)[nH]c2=O)C[C@@H]1N=[N+]=[N-],100 µg/mL,-,-,-,9%
NC(=O)c1nc[nH]c1C(N)=O,0.032 µg/mL,Human isolate,-,L929,-14.97%
CC[C@H]1OC(=O)[C@H](C)[C@@H](O[C@H]2C[C@@](C)(OC)[C@@H](O)[C@H](C)O2)[C@H](C)[C@@H](O[C@@H]2O[C@H](C)C[C@H](N(C)C)[C@H]2O)[C@](C)(O)C[C@@H](C)CN(C)[C@H](C)[C@@H](O)[C@]1(C)O,5 µM,-,cell count,-,8.6%
O=S(=O)(F)Cc1ccccc1,1000 µM,-,cell count / microscopy,-,31.1%
NC[C@@H]1O[C@H](O[C@H]2[C@@H](O)[C@H](O[C@@H]3[C@@H](O)[C@H](N)C[C@H](N)[C@H]3O[C@H]3O[C@H](CO)[C@@H](O)[C@H](O)[C@H]3N)O[C@@H]2CO)[C@H](N)[C@@H](O)[C@@H]1O,1000 µg/mL,-,-,HT29.74,95%
NC12CC3CC(CC(C3)C1)C2,50 µg/mL,-,-,-,0%
Cc1ccc(C(=O)Nc2ccc(S(=O)(=O)O)c3cc(S(=O)(=O)O)cc(S(=O)(=O)O)c23)cc1NC(=O)c1cccc(NC(=O)Nc2cccc(C(=O)Nc3cc(C(=O)Nc4ccc(S(=O)(=O)O)c5cc(S(=O)(=O)O)cc(S(=O)(=O)O)c45)ccc3C)c2)c1,1 µM,-,-,HCT-8,33%
Cc1cn([C@H]2C[C@H](N=[N+]=[N-])[C@@H](CO)O2)c(=O)[nH]c1=O,0.8 µg/mL,Calf isolate,-,L929,-14.65%
CC[C@@H]1O[C@@H]([C@]2(C)C[C@@H](C)[C@](O)([C@]3(C)CC[C@@H]([C@@H](O)[C@]4(O)O[C@H](C[C@@]5(O)O[C@@H]([C@@H](C)[C@H](O)C[C@@H]6O[C@H]([C@@H](C)C(=O)O)[C@@H](C)C[C@H]6C)CC[C@@H]5C)[C@@H](C)C[C@H]4C)O3)O2)CC[C@@]1(C)O,1 µM,-,-,HCT-8,100%
C[C@H]1[C@H](O)[C@@H](C)/C=C/C=C/C=C/C=C/C=C/C=C/C=C/[C@H](O[C@@H]2O[C@H](C)[C@@H](O)[C@H](N)[C@@H]2O)C[C@@H]2O[C@](O)(C[C@@H](O)C[C@@H](O)CC[C@H](O)[C@@H](O)C[C@@H](O)CC(=O)O[C@H]1C)C[C@H](O)[C@H]2C(=O)O,20 µg/mL,Calf isolate,-,L929,-33.33%
CCN(CC)CCCC(C)Nc1ccnc2cc(Cl)ccc12,1 µM,-,-,HCT-8,0%
CC(C)(C)NC(=O)[C@@H]1CN(Cc2cccnc2)CCN1C[C@@H](O)C[C@@H](Cc1ccccc1)C(=O)N[C@H]1c2ccccc2C[C@H]1O,20 µg/mL,-,-,HCT-8,15%
CC(C)N=C(N)/N=C(\N)Nc1ccc(Cl)cc1,0.8 µg/mL,Calf isolate,-,L929,2.59%
Cc1cn([C@@H]2O[C@H](CO)[C@@H](O)[C@@H]2O)c(=O)[nH]c1=O,25 µg/mL,-,-,-,68%
CC[C@@]1([C@@H]2O[C@@H]([C@H]3O[C@@](O)(CO)[C@H](C)C[C@@H]3C)C[C@@H]2C)CC[C@H]([C@]2(C)CC[C@]3(C[C@H](O)[C@@H](C)[C@@H]([C@@H](C)[C@@H](OC)[C@H](C)C(=O)O)O3)O2)O1,0.032 µg/mL,Calf isolate,-,L929,35.14%
O=C(O)c1cc([N+](=O)[O-])c(N2CCOCC2)c([N+](=O)[O-])c1,10 µM,-,ELISA / luminescence,MDCK cells,0%
CCCCN(CCCC)CCC(O)c1cc2c(Cl)cc(Cl)cc2c2cc(C(F)(F)F)ccc12,20 µg/mL,Calf isolate,-,L929,69.36%
Cc1cn([C@H]2C[C@H](N=[N+]=[N-])[C@@H](CO)O2)c(=O)[nH]c1=O,25 µg/mL,-,-,-,15%
O=S(=O)(F)Cc1ccccc1,2000 µM,-,-,-,44.1%
N#CC(c1ccc(Cl)cc1)c1c(Cl)cc(-n2ncc(=O)[nH]c2=O)cc1Cl,4 µg/mL,Calf isolate,-,L929,15.04%

The last 2 rows once more:

O=S(=O)(F)Cc1ccccc1 ; dose: 2000 µM ; value: 44.1%
N#CC(c1ccc(Cl)cc1)c1c(Cl)cc(-n2ncc(=O)[nH]c2=O)cc1Cl ; dose: 4 µg/mL ; strain or isolate: Calf isolate ; cell line: L929 ; value: 15.04%

Inhibition is in % at the dose shown (toxicity tests: loss of growth or viability). Lines come from different laboratories, so protocols vary.